In US20200283532A1, “TUMOUR-TARGETING PEPTIDE VARIANTS” (Cancer Research Technology Limited, priority 2017, published 2020):

Each substance was assayed against integrin αvβ6 (UniProt P06756).

Q: Peptide (16) AcHN-NK(Biotin)…-OH was tested. Which Affinity (mean activity relative to biotinylated A20FMDV2, 100 nM) (relative to biotinylated A20FMDV2) did it give?
A: 1.48

Q: Which Affinity (mean activity relative to biotinylated A20FMDV2, 100 nM) (relative to biotinylated A20FMDV2) does the source give for Peptide (17) […]2 here?
A: 1.23

Q: Peptide (18) AcHN-NK(Biotin)…-NH2 was tested. Which Affinity (mean activity relative to biotinylated A20FMDV2, 100 nM) (relative to biotinylated A20FMDV2) did it give?
A: 1.25

Q: With Peptide (19) […] as the substance, how does the Affinity (mean activity relative to biotinylated A20FMDV2, 100 nM) (relative to biotinylated A20FMDV2) read?
A: 1.43

Q: How did the Affinity (mean activity relative to biotinylated A20FMDV2, 100 nM) (relative to biotinylated A20FMDV2) turn out when Peptide (20) […] was run?
A: 0.53

Q: With Peptide (21) […] as the substance, how does the Affinity (mean activity relative to biotinylated A20FMDV2, 100 nM) (relative to biotinylated A20FMDV2) read?
A: 1.57

Q: How did the Affinity (mean activity relative to biotinylated A20FMDV2, 100 nM) (relative to biotinylated A20FMDV2) turn out when Peptide (22) DTPA-NK(Biotin)…-OH was run?
A: 1.01

Q: With Peptide (23) DTPA-GNK(Biotin)…-OH as the substance, how does the Affinity (mean activity relative to biotinylated A20FMDV2, 100 nM) (relative to biotinylated A20FMDV2) read?
A: 1.28

Q: For Peptide (24) DTPA-NK(Biotin)…-NH2, which Affinity (mean activity relative to biotinylated A20FMDV2, 100 nM) (relative to biotinylated A20FMDV2) is on record?
A: 1.19

Q: How did the Affinity (mean activity relative to biotinylated A20FMDV2, 100 nM) (relative to biotinylated A20FMDV2) turn out when Peptide (25) DTPA-nK(Biotin)…-OH was run?
A: 1.36

Q: Which Affinity (mean activity relative to biotinylated A20FMDV2, 100 nM) (relative to biotinylated A20FMDV2) does the source give for Peptide (26) DTPA-nK(Biotin)…t-OH here?
A: 1.19
